Data on 10 molecules can be found in US20220145343A1 (priority 2019, published 2022).

Assay [1] has as its system α1-4-galactosyltransferase activity of NmSiaDW. To be noted: UDP-Gal as donor; for Product: sialoside as acceptor.
The test system of assay [2] is α2-6-sialyltransferase activity of NmSiaDW. To be noted: galactoside as acceptor, CMP-Neu5Ac as donor.
The subject of a further assay is NmCSS and PmAldolase. To be noted: step 1 in the presence of NmCSS (0.75 mg/mL) and PmAldolase (2 mg/mL) for 10 h.
In assay [3] the test system is α2-6-sialyltransferase activity of NmSiaDW. To be noted: acceptor G4.

Like-named read-outs stand apart in the source and are kept apart here. Marks after values point to notes of the source that are not given here.

On to Neu5Ac9NAcα2-6GalβProN3, for which the Product result in assay [1] is “√”. With GalβProN3, the Product result in assay [2] is “√”. Take `[N-]=[N+]=N[C@@H]([C@H](O)[C@@H](C=O)N=[N+]=[N-])[C@H](O)CO`: the “Percentage conversion (%) CMP-Sialic acid” value in the assay with NmCSS and PmAldolase was 53 ± 4 ^b %. Also, the “Percentage conversion (%) Transferase Reaction” value in assay [3] (13 μg/mL NmSiaDW, 10 min) is listed as 0%; in assay [3] (0.78 mg/mL NmSiaDW, 10 h), 0%. As for Galα1-4Neu5Acα2-6GalβpNP, the Product entry in assay [2] is recorded as “√”. Regarding Galβ1-4GlcβMU, in assay [2], the Product result is reported as “√”. As to Galβ1-4Glcβ2AA, the Product result in assay [2] is “√”.

With Neu5Ac9NAcα2-6GalβpNP, the Product entry in assay [1] is on record as “√”. Take Neu5Acα2-6Galβ1-4βProN3: the Product result in assay [1] is “√”. With `[N-]=[N+]=NC[C@@H](O)[C@@H](N=[N+]=[N-])[C@H](O)[C@@H](C=O)N=[N+]=[N-]`, the “Percentage conversion (%) CMP-Sialic acid” value in the assay with NmCSS and PmAldolase is on record as 81 ± 1 ^b %. Moreover, the “Percentage conversion (%) Transferase Reaction” value stood at 0% in assay [3] (13 μg/mL NmSiaDW, 10 min) and 0% in assay [3] (0.78 mg/mL NmSiaDW, 10 h). Turning to Neu5AcαOMe, in assay [1], the “acceptor substrate suitability in words” value is “suitable acceptor substrates” and the Product entry is listed as “√”.
